How the values were obtained:
[1] = biological target: human Kv1.1 channel (human) (UniProt Q09470); assay: cell-based or functional assay
[2] = biological target: human Kv1.3 channel (human) (UniProt P22001); assay: cell-based or functional assay

Substance	hKv1.1: IC50 (electrophysiology, HEK293) [1]	hKv1.3: IC50 (whole-cell patch clamp, HEK293) [2]	selectivity ratio hKv1.1/hKv1.3 (IC50 on hKv1.1 over IC50 on hKv1.3) [2]	Kv1.3 IC50 by IWQ (IonWorks planar patch clamp, CHO/Kv1.3 cells) [2]	fold less potent than synthetic OSK1 (IC50 of Kv1.3 current block) [2]
Fc-L10-OSK1[K7S] (Fc fusion)	100000 pM	372 pM	269		
CHO-derived Fc-L10-ShK[1-35] R1Q (Fc fusion)				2200 pM	
Fc-L10-OSK1[E16K,K20D] (Fc fusion)		248 pM	403		6 fold
Fc-L10-OSK1[K7S,E16K,K20D] (Fc fusion)	10000 pM	812 pM	12		21 fold

From US20070071764A1
